Laboratory results from publication PMC8692984 (Frontiers in Pharmacology, 2021).

Protein sequences, listed by entry. Tags and fused reporters are not part of them. Residues count along the entry.
UniProt P58154, 20-229 limits assumed: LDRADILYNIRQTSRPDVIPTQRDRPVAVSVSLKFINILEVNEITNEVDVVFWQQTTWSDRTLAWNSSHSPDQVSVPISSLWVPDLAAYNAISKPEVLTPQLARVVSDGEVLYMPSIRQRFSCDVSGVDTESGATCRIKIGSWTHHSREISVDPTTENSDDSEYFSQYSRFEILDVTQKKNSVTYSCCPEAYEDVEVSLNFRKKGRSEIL

Molecular target: Ls-AChBP (Lymnaea stagnalis, UniProt P58154)
Assay: displacement of [3H]-epibatidine binding on Ls-AChBP

| SMILES | reduced affinity for Ls-AChBP compared to OmIA |
| --- | --- |
| CC[C@H](C)[C@@H]1NC(=O)[C@H](Cc2c[nH]cn2)NC(=O)[C@@H]2CCCN2C(=O)[C@H](CC(N)=O)NC(=O)[C@H](CC(N)=O)NC(=O)[C@H](C(C)C)NC(=O)[C@H](CC(N)=O)NC(=O)[C@@H]2CSSC[C@H](NC(=O)CN)C(=O)N[C@@H](CSSC[C@@H](C(=O)NCC(N)=O)NC1=O)C(=O)N[C@@H](CO)C(=O)N[C@@H](CCCNC(=N)N)C(=O)N1CCC[C@H]1C(=O)N[C@@H](C)C(=O)N2 [[H5R]OmIA] | 3.6 fold |
| CC[C@H](C)[C@@H]1NC(=O)[C@H](Cc2c[nH]cn2)NC(=O)[C@@H]2CCCN2C(=O)[C@H](CC(N)=O)NC(=O)[C@H](CC(=O)O)NC(=O)[C@H](C(C)C)NC(=O)[C@H](CC(N)=O)NC(=O)[C@@H]2CSSC[C@H](NC(=O)CN)C(=O)N[C@@H](CSSC[C@@H](C(=O)NCC(N)=O)NC1=O)C(=O)N[C@@H](CO)C(=O)N[C@@H](Cc1c[nH]cn1)C(=O)N1CCC[C@H]1C(=O)N[C@@H](C)C(=O)N2 [[N11D]OmIA] | 10 fold |
